Experimental data as given in ChEMBL document CHEMBL4219160, “The discovery of novel diarylpyri(mi)dine derivatives with high level activity against a wide variety of HIV-1 strains as well as against HIV-2” (Bioorg Med Chem, 2018).

Molecular target: Human immunodeficiency virus type 1 reverse transcriptase (Human immunodeficiency virus 1, UniProt Q72547, K103N/Y181C)
Assay: Inhibition of HIV1 reverse transcriptase K103N/Y181C double mutant using poly (A)/oligo (dT)15 as template/primer assessed as decrease in biotin-dUTP incorporation after 1 hr by ELISA

SMILES: Cc1cc(C#N)cc(C)c1Oc1nc(Nc2ccc(C#N)cc2)nc(N)c1Br [ETRAVIRINE]
- IC50: 20 nM
